Measured values from several laboratories, pooled; numbers as filed in NIAID ChemDB.

All rows: growth or infection tests

An empty or dashed field is not shown.

compound | endpoint | tested at | strain | method | agent | result
Cc1ccc(N2NOC(=O)C2S(=O)(=O)Nc2nc3ccc(C)cc3s2)cc1 | MIC |  | MTCC323 | broth dilution | Aspergillus clavatus | 500 µg/mL
CC(=O)OC[C@H]1O[C@@H](Sc2ncc(-c3cccnc3)n2N)[C@H](OC(C)=O)[C@@H](OC(C)=O)[C@@H]1OC(C)=O | zone | 2.5 mg/mL |  | agar diffusion / agar | Aspergillus fumigatus | 1–5 mm
CC(C)c1cc2c(c(O)c1O)[C@@]13CCCC(C)(C)C1C[C@@H]2OC3=O | zone | 400 µg/mL |  | agar diffusion | Aspergillus tubingensis | 0 mm
CC(=O)OC[C@H]1O[C@@H](n2[nH]c(-c3ccccc3)[n+](/N=C/c3ccc(Cl)cc3)c2=S)[C@H](OC(C)=O)[C@@H](OC(C)=O)[C@@H]1OC(C)=O | zone | 5 mg/mL |  | agar diffusion / agar | Aspergillus fumigatus | 6–10 mm
COc1cccc(C=O)c1OC | MIC |  | UAB698 | agar | Aspergillus terreus | 2000 µM
OC[C@H]1O[C@@H](n2nc(-c3cccnc3)n(/N=C/c3ccccc3)c2=S)[C@H](O)[C@@H](O)[C@@H]1O | zone | 1 mg/mL |  | agar diffusion / agar | Aspergillus fumigatus | 1–5 mm
N#Cc1c[nH]cc1-c1cccc2c1OC(F)(F)O2 | zone | 10 µg/mL |  | agar diffusion | Aspergillus tubingensis | 16.4 mm
C[C@@H]1[C@H](O)[C@@H](C)/C=C/C=C/CC/C=C/C=C/C=C/C=C/C(O[C@H]2O[C@H](C)[C@@H](O)[C@H](N)[C@@H]2O)CC2O[C@](O)(CC(O)C(O)CCC(O)CC(O)CC(O)CC(=O)O[C@H]1C)CC(O)C2C(=O)O | MIC |  | MTCC323 | broth dilution | Aspergillus clavatus | 100 µg/mL
[Al]#[P] | MFC |  |  | agar | Aspergillus terreus | >5 µg/mL
CC(=O)OC[C@H]1O[C@@H](n2[nH]c(-c3ccccc3)[n+](/N=C/c3ccc(C)cc3)c2=S)[C@H](OC(C)=O)[C@@H](OC(C)=O)[C@@H]1OC(C)=O | zone | 2.5 mg/mL |  | agar diffusion / agar | Aspergillus fumigatus | 1–5 mm
COc1ccc(OC)c(C=O)c1 | MIC |  | UAB680 | agar | Aspergillus terreus | 1500 µM
Cc1ccc(N2NOC(=O)C2S(=O)(=O)Nc2nc3ccc(F)cc3s2)cc1 | zone | 250 µg/mL | MTCC323 | agar diffusion | Aspergillus clavatus | 19 mm
COc1cc(C=O)cc(OC)c1 | MIC |  | UAB680 | agar | Aspergillus terreus | 1000 µM
Cc1ccc(N2NOC(=O)C2S(=O)(=O)Nc2nc3ccc(Cl)cc3s2)cc1 | MIC |  | MTCC323 | broth dilution | Aspergillus clavatus | 500 µg/mL
CC(=O)OC[C@H]1O[C@@H](Sc2nnc(-c3cccnc3)n2/N=C/c2ccc(Cl)cc2)[C@H](OC(C)=O)[C@@H](OC(C)=O)[C@@H]1OC(C)=O | zone | 1 mg/mL |  | agar diffusion / agar | Aspergillus fumigatus | 1–5 mm

a–b is a range or a potency band. Zone: diameter of growth inhibition. Neighbouring rows are from separate reports.